A mixed list of measured activities; the numbers were collected in NIAID ChemDB.

Shared fields: tests in culture; species: HIV-1; method: cytopathic effect / XTT; read-out: EC50

ECn is the concentration giving n% inhibition of infection, replication or growth.

structure | strain or isolate | mutations | cells | value
C=CCNC(=O)NC1=CSC2=NC(=O)C3(NN12)c1ccccc1-c1ccccc13 | - | - | CEM | >20 µM
CC(C)=CCOc1cc(NC(=S)c2ccsc2C)ccc1Cl | NL4-3 (RT Y188C) | RT-Y188C | CEM + CEM-SS | 0.006 µM
FC(F)(Sc1ncccn1)c1nc2ccccc2o1 | OC(RT-L100I) | RT-L100I | CEM + CEM-SS | 4.08 µM
Cc1occc1C(=S)Nc1ccc(Cl)c(COC(C)(C)C)c1 | RF | - | CEM + CEM-SS | 0.018 µM
COc1cc2c(c3oc(=O)c(CBr)c(C)c13)[C@@H](OC(=O)C13CCC(C)(C(=O)O1)C3(C)C)[C@@H](OC(=O)C13CCC(C)(C(=O)O1)C3(C)C)C(C)(C)O2 | IIIB | - | MT-4 | 0.24 µM
CNC(=O)N(CCC[C@H](NC(C)=O)C(=O)NCc1ccccc1)Cc1ccccc1 | IIIB | - | CEM-IW + CEM | >100 µM
O=C1CSC2=NC(=O)C3(NN12)c1ccccc1-c1ccccc13 | - | - | CEM | >63 µM
CCC(=O)c1ccc(F)c([C@H]2C[C@H]2NC(=O)Nc2ccc(C#N)cn2)c1O | IIIB | RT-Y181C | MT-4 | 0.02 µM
COc1cc2c(c3oc(=O)c(C)c(C)c13)[C@@H](OC(=O)C13CCC(C)(C(=O)O1)C3(C)C)[C@@H](OC(=O)C13CCC(C)(C(=O)O1)C3(C)C)C(C)(C)O2 | IIIB | - | MT-4 | 2.94 µM
Cc1ccnc(SC(F)(F)c2nc3ccccc3o2)n1 | RF | - | CEM + CEM-SS | 0.0646 µM
CCCNCCC[C@H](NC(C)=O)C(=O)NCc1ccccc1 | IIIB | - | CEM-IW + CEM | >100 µM
O=C(O)c1cc(Cc2cc(Cl)c(O)c(C(=O)O)c2)cc(Cl)c1O | IIIB | - | CEM | 117 µM
O=C(O)CSC1=NNC2(C(=O)N1)c1ccccc1-c1ccccc12 | - | - | CEM | >63 µM
CC1(C)Oc2ccc3cc(CC#N)c(=O)oc3c2[C@@H](OC(=O)C23CCC(C)(C(=O)O2)C3(C)C)[C@H]1OC(=O)C12CCC(C)(C(=O)O1)C2(C)C | IIIB | - | MT-4 | 5.45 µM
CC(C)=CCN1Cc2cccc3[nH]c(=O)n(c23)CC1C | UC10-resistant (RT Y181C K101E) | RT-Y181C K101E | CEM + CEM-SS | >35 µM
C=CCNC(=O)NCCCC[C@H](NC(C)=O)C(=O)NCc1ccccc1 | IIIB | - | CEM-IW + CEM | >100 µM
Nc1ncnc2c1ncn2[C@@H]1O[C@@H](CO)[C@H](OCP(=O)(O)O)[C@H]1O | IIIB | - | MT-2 | >200 µM
Cc1cc(Cl)cc2c1S(=O)(=O)n1c(C)cnc1S2 | - | - | CEM | 9 µM
CCC(=O)c1ccc(F)c(C2CC2NC(=O)Nc2ccc(Br)cn2)c1O | IIIB | RT-L100I | MT-4 | 0.1 µM
Cc1occc1C(=S)Nc1ccc(Cl)c(C(=O)OCC(C)C)c1 | RF | - | CEM + CEM-SS | 0.012 µM
Cc1cc2c(cc1Cl)Sc1nccn1S2(=O)=O | - | - | CEM | 44 µM
CC(=O)N[C@@H](CCCCNC(=O)NCCCl)C(=O)NCc1ccccc1 | IIIB | - | CEM-IW + CEM | >100 µM
Cc1c(C[N+](=O)[O-])c(=O)oc2c3c(ccc12)OC(C)(C)[C@H](OC(=O)C12CCC(C)(C(=O)O1)C2(C)C)[C@@H]3OC(=O)C12CCC(C)(C(=O)O1)C2(C)C | IIIB | - | MT-4 | 0.0905 µM
Cc1cnc2n1S(=O)(=O)c1cc(C(=O)O)c(Cl)cc1S2 | - | - | CEM | >200 µM
NC1=NNC2(C(N)=N1)c1ccccc1-c1ccccc12 | - | - | CEM | >20 µM
CCC(C)C(NC(=O)c1ccccc1SSc1ccccc1C(=O)NC(C(=O)O)C(C)CC)C(=O)O | RF | - | CEM + CEM-SS | 1.9 µM
Nc1ncnc2c1ncn2[C@@H]1O[C@H]2CO[C@@H]1[C@H]2OCP(=O)(O)O | IIIB | - | MT-2 | >200 µM
CC(=O)N[C@@H](CCCCNC(=O)OCc1ccccc1)C(=O)NCc1ccccc1 | IIIB | - | CEM-IW + CEM | >100 µM
O=C(O)c1cc(C(=C(c2cc(Cl)c(O)c(C(=O)O)c2)c2cc(Cl)c(O)c(C(=O)O)c2)c2cc(Cl)c(O)c(C(=O)O)c2)cc(Cl)c1O | IIIB | - | CEM | 68 µM
Cc1occc1C(=S)Nc1ccc(Cl)c(C(=O)OC(C)C2CC2)c1 | RF | - | CEM + CEM-SS | 0.02 µM
COc1cc2c(c3oc(=O)c(CC#N)c(C)c13)[C@@H](OC(=O)C13CCC(C)(C(=O)O1)C3(C)C)[C@@H](OC(=O)C13CCC(C)(C(=O)O1)C3(C)C)C(C)(C)O2 | IIIB | - | MT-4 | 0.11 µM
Cc1occc1C(=S)Nc1ccc(Cl)c(C(=O)OCC2CC2)c1 | 4xAZT/L100I(RT-D67N K70R T215Y K219Q L100I) | RT-D67N K70R L100I T215Y K219Q | CEM + CEM-SS | 2 µM
CCCCCCCCCCCCCCCC(=O)Nc1ccn([C@H]2CC[C@@H](COP(=O)(O)O[C@H]3C[C@H](n4cc(C)c(=O)[nH]c4=O)O[C@@H]3CO)O2)c(=O)n1 | IIIB | - | CEM + CEM-SS | 0.0644–0.0824 µM
CC=CCOc1cc(NC(=S)c2ccoc2C)ccc1OC | NL4-3 | RT-V108I | CEM + CEM-SS | 0.09 µM
CC(C)=CCOc1cc(NC(=S)c2ccoc2C)ccc1Cl | HEPT-resistant (RT P236L) | RT-P236L | CEM + CEM-SS | 0.02 µM
Cc1occc1C(=S)Nc1ccc(Cl)c(C(=O)OC(C)C)c1 | 4xAZT/L100I(RT-D67N K70R T215Y K219Q L100I) | RT-D67N K70R L100I T215Y K219Q | CEM + CEM-SS | 0.9 µM
CC(=O)N[C@@H](CCCNCc1ccccc1)C(=O)NCc1ccccc1 | IIIB | - | CEM-IW + CEM | >100 µM
FC(F)(Sc1ccccc1)c1nc2ccccc2o1 | RF | - | CEM + CEM-SS | 36 µM
Cc1cn([C@H]2C[C@H](N=[N+]=[N-])[C@@H](COP(=O)(O)OC[C@@H]3CC[C@H](n4ccc(N)nc4=O)O3)O2)c(=O)[nH]c1=O | IIIB | - | CEM + CEM-SS | 0.0259–0.0831 µM
O=C1NC(SC(SC2=NNC3(C(=O)N2)c2ccccc2-c2ccccc23)=C(SC2=NNC3(C(=O)N2)c2ccccc2-c2ccccc23)SC2=NNC3(C(=O)N2)c2ccccc2-c2ccccc23)=NNC12c1ccccc1-c1ccccc12 | - | - | CEM | >63 µM
CC(=O)N[C@@H](CCCN(Cc1ccccc1)C(=O)NCCCl)C(=O)NCc1ccccc1 | IIIB | - | CEM-IW + CEM | >100 µM
C=CCO/N=C/c1cc(NC(=S)c2ccoc2C)ccc1Cl | NL4-3 | RT-A98G | CEM + CEM-SS | 0.4 µM

The first 2 rows once more:

structure	strain or isolate	mutations	cells	value
C=CCNC(=O)NC1=CSC2=NC(=O)C3(NN12)c1ccccc1-c1ccccc13	-	-	CEM	>20 µM
CC(C)=CCOc1cc(NC(=S)c2ccsc2C)ccc1Cl	NL4-3 (RT Y188C)	RT-Y188C	CEM + CEM-SS	0.006 µM

a–b is a range or a potency band. Blank or dashed fields: not listed here. Neighbouring rows are from separate reports.